# Screening data, single-dose tests

Data taken from ChEMBL document CHEMBL3988442, “University of Dundee, Small-Polar-MMV Screening Library” (2021).

Values are the deposited “Percent Effect”, in %. The record does not define 0% and 100%; most values in the screen are far below 50% and negative numbers occur (in some assays of this library far below -100). The entries come from a sample that favours strong results.

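Whole-cell growth test on Mycobacterium tuberculosis, read after 4 days in a medium based on cholesterol and the lipid DPPC; the read-out is not stated. Compounds at 500 µM. Direction is inferred from retests: higher values go with more growth inhibition. Size under these conditions: about 18,000 compounds, about 900 of them at 50% or above in at least one test.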

| structure | effect |
|---|---|
| `NCC1CN(Cc2ccccc2)CCO1` (configuration not stated) | 11.02% |
| `O=C(c1c(F)cccc1F)N1CCNCC1` | -5.901% |
| `CCc1ccc(CN(C)C(=O)c2cccc(N)n2)nc1` | 6.551% |
| `COC(=O)c1ccc(C(=O)N=c2sccn2C)cc1` | -7.947% |
| `Cc1ncsc1C(=O)NC(C)C(C)C` (configuration not stated) | 76.67% |
| `CCNc1ncc(C(=O)N2CCCCC2)s1` | 64.32% |
| `Cc1ccccc1CC(=O)NC1CCS(=O)(=O)C1` (configuration not stated) | 6.321% |
| `CCN(CC)CCOc1ccc(CN)cc1OC` | -14.93% |
| `Cn1cnc(S(=O)(=O)NCC(N)c2ccccc2)c1Cl` (configuration not stated) | -1.891% |
| `C=C(C)CN1CCC(NC(=O)N2CCSCC2)CC1` | 60.92% |
| `Cc1c(C(=O)Nc2ccc3c(c2)OCCO3)cnn1C` | 57.49% |
| `CSc1ncccc1C(=O)NC(C)c1nc(C)c[nH]1` (configuration not stated) | 2.671% |
| `Cn1cccc1C1COCCN1CC1OCCO1` (configuration not stated) | -19.03% |
| `CCOC(=O)CN(C)S(=O)(=O)NCc1cnn(C)c1` | 16.67% |
| `COc1ccc(NC(=O)CSCC#N)cc1` | 11.29% |
| `CN(C)S(=O)(=O)c1ccc(CN2CCC(C(N)=O)C2)o1` (configuration not stated) | -1.433% |
| `CN(C)C(=O)c1csc2c1CCCC2` | 50.42% |
| `CC(C)Oc1ccc(CNC(=O)N2CCCC2)cn1` | 59.87% |
| `Cc1nonc1NC(=O)CSc1c[nH]nn1` | 16.72% |
| `c1ccc(N2CCCN(c3ncccn3)CC2)nc1` | 1.62% |
| `CC(C)(C(=O)NCc1nnc[nH]1)c1cccc(Cl)c1` | 14.8% |
| `Cn1nccc1CNC(=O)c1cccc(C#N)c1` | -0.9033% |
| `CC(C)N(C)C(=O)N(C)CC(=O)Nc1ccc(Br)cn1` | -4.689% |
| `Cc1cncc(NCc2ncc[nH]2)c1` | -4.441% |
| `COc1ncccc1C(=O)NCCc1cncn1C` | 9.841% |
| `NS(=O)(=O)c1ccc(NC(=O)N2CCCCC2)cc1` | -4.468% |
| `COC(=O)N1CCC(Nc2nnc(C(F)(F)F)s2)CC1` | 66.45% |
| `CC(=O)N1CCCn2nc(-c3cccc(F)c3)cc2C1` | 6.627% |
| `CC(C)[C@H](N)C(=O)N1CCN(C(=O)N(C)C)CC1` | -2.392% |
| `NCCS(=O)(=O)N1CCc2ccccc21` | 70.73% |
| `Cc1nc(CN(C)CC2CCN(CC(C)O)CC2)no1` (configuration not stated) | -16.56% |
| `COc1cccc(CCC(=O)N2CCCC2)c1` | 69.53% |
| `CC1(C)CC(NC(=O)CC#N)CC(C)(C)N1` | -57.16% |
| `CN(CCO)CCNc1cc([C@H]2C[C@H](N)C2)ncn1` | -23.59% |
| `NC(=O)c1cc(NC(=O)N2CCCC2)ccc1Cl` | -3.532% |
| `Cn1ncnc1NC(=O)c1ccc(Br)cn1` | 15.83% |
| `c1snnc1CNCC1COC2(CCCCC2)O1` (configuration not stated) | 56.32% |
| `CC(=O)Nc1ccc2c(c1)C(=O)N(C(C)C)C2=O` | -10.71% |
| `COCCNC(=O)c1ccc2c(c1)OCCCO2` | 19.26% |
| `COC(CN)Cc1ccccc1` (configuration not stated) | -11.69% |
| `CC(C)CCC(=O)N1CCN(CC(O)C(F)(F)F)CC1` (configuration not stated) | 50.84% |
| `Cc1cc(=O)cc(C(=O)NCCCc2ccncc2)o1` | -7.065% |
| `COC(=O)CN1CCN(c2ccccc2O)CC1` | -2.877% |
| `OC[C@@H]1CN(C2CCC2)C[C@H]1c1nc(C2CC2)no1` | 41.76% |
| `CN[C@@H]1CN(C(=O)OC(C)(C)C)C[C@H]1O` | 2.761% |
| `COc1cccc(NCCC#N)c1` | 25.01% |
| `O=S(=O)(CC(O)CO)C1Cc2ccccc2C1` (configuration not stated) | -2.193% |
| `CCOC(=O)c1ccc(S(=O)(=O)N[C@@H](C)CO)cc1` | -4.726% |
| `COC(=O)C(C)N(c1cc(Cl)ccc1OC)S(C)(=O)=O` (configuration not stated) | 13.62% |
| `O=C(NCc1nccs1)c1csc(NC2CC2)n1` | 23.69% |
| `CC1CN(c2ccc(CNc3nccs3)cn2)CCO1` (configuration not stated) | 39.84% |
| `Cc1nc(CN2CCCC(N)C2)cs1` (configuration not stated) | 10.75% |
| `NS(=O)(=O)Cc1cccc(NC(=O)N2CCSCC2)c1` | 16.45% |
| `COCC(C)NC(=O)CCNC(=O)c1cccc(C)c1` (configuration not stated) | -7.85% |
| `CCCc1cc(CN(C)C(=O)c2ccnnc2)n[nH]1` | 8.012% |
| `Cc1cccc2[nH]cc(CCN)c12` | 59.68% |
| `CNCc1ccc(Cn2ccnc2)cc1` | -5.35% |
| `COc1cccc(CNc2ccccn2)c1O` | 37.25% |
| `CN(C)C(=O)C1CCCN(Cc2cccc(F)c2)C1` (configuration not stated) | -5.065% |
| `NCc1noc(-c2ccc3c(c2)OCO3)n1` | 23.09% |
| `CNC(=O)c1cccc(NCc2cccnc2)n1` | 10.7% |
| `CCS(=O)(=O)Nc1cccc(C(C)=O)c1` | 30.05% |
| `CCOC(=O)Cn1nc(C)c(CN)c1C` | -1.27% |
| `CC(c1ccccn1)N1CCCSCC1` (configuration not stated) | 10.29% |
| `CC1(C)CCCN1C(=O)NCCCNC(=O)C1CCC1` | -2.059% |
| `CC(=O)Nc1nc(C(=O)NCc2ccc(C)s2)cs1` | 77.57% |
| `Cc1cc(C(=O)NCc2ccc(F)cc2)[nH]n1` | 58.95% |
| `COc1c(CNCCS(C)(=O)=O)c(C)nn1C` | 3.786% |
| `CC(C)NC(=O)CN1CCCN(c2ccccn2)CC1` | 17.53% |
| `NC1CCN(c2ncccc2F)C1` (configuration not stated) | 27.18% |
| `CCN(CC)c1ccc(C(=O)Nc2cc[nH]n2)cn1` | 99.47% |
| `Cc1c(Cl)cccc1N(S(C)(=O)=O)S(C)(=O)=O` | 19.31% |
| `CCCS(=O)(=O)NCCc1noc(C)n1` | -29.8% |
| `CC(C)CCNC(=O)Cn1c(=O)oc2ccccc21` | 87.18% |
| `O=C(CCC1CCCC1)N1CCNCC1` | 34.01% |
| `Cn1cc(N)cc(Cl)c1=O` | -136.5% |
| `CC(C)Cc1noc(-c2ccc(N(C)CCO)nc2)n1` | 62.32% |
| `OC1(Cc2cccnc2)CCNCC1` | 0.1484% |
| `Cc1nn(CC(=O)N(C)C)c(=O)c2ccccc12` | 53.67% |
| `NC1(c2ccccn2)CC1` | 10.37% |

8 of the entries, repeated:

structure	effect
CCOC(=O)Cn1nc(C)c(CN)c1C	-1.27%
CN(C)C(=O)C1CCCN(Cc2cccc(F)c2)C1 (configuration not stated)	-5.065%
Cn1ncnc1NC(=O)c1ccc(Br)cn1	15.83%
O=C(c1c(F)cccc1F)N1CCNCC1	-5.901%
c1snnc1CNCC1COC2(CCCCC2)O1 (configuration not stated)	56.32%
Cc1ncsc1C(=O)NC(C)C(C)C (configuration not stated)	76.67%
COCC(C)NC(=O)CCNC(=O)c1cccc(C)c1 (configuration not stated)	-7.85%
Cn1cnc(S(=O)(=O)NCC(N)c2ccccc2)c1Cl (configuration not stated)	-1.891%